Results from ChEMBL document CHEMBL5346973 (J Med Chem, 2023).

The chains behind the UniProt entries cited, without tags or fusion partners. Where a name states a change or a piece, a line headed by the entry shows the natural chain unless it says otherwise.
UniProt P43144: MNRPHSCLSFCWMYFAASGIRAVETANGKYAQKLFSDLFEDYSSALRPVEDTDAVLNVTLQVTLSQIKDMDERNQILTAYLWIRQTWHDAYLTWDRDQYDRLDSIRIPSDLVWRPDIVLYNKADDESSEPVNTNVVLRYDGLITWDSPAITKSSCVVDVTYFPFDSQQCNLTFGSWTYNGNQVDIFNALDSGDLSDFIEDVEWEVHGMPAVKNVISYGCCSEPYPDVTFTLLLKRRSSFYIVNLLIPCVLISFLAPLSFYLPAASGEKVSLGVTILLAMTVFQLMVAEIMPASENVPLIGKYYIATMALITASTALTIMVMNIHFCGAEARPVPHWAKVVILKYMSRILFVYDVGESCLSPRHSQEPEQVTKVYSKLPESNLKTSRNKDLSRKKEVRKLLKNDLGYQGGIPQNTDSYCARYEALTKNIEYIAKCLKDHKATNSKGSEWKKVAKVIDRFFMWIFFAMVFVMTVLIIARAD
UniProt Q9JLB5: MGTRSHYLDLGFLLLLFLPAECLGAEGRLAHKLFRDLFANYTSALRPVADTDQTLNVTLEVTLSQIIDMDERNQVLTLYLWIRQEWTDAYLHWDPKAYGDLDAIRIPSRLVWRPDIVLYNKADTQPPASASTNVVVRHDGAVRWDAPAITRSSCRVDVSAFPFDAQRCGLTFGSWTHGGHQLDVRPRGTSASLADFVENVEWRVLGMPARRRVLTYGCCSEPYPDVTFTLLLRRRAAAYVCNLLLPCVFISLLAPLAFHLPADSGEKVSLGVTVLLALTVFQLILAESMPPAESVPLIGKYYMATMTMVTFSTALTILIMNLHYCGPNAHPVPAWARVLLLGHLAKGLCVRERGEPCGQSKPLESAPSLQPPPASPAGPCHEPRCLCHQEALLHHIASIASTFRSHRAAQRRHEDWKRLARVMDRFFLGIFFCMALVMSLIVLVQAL
UniProt Q05941, whole entry, looked up: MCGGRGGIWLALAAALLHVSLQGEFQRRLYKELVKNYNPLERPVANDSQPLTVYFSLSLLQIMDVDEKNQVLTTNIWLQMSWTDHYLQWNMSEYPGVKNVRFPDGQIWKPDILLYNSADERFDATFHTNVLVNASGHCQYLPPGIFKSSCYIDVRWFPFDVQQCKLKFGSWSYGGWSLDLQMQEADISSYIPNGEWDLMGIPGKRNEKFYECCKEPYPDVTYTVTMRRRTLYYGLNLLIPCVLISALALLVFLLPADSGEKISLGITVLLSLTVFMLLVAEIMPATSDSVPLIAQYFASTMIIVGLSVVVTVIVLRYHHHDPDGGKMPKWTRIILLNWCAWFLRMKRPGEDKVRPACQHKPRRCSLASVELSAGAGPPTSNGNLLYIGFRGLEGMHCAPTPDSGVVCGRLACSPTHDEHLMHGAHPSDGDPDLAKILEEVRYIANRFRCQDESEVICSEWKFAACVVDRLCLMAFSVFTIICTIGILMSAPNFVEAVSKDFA

How the values were obtained:
[1] = target: Nicotinic acetylcholine receptor alpha9/alpha10 (Rattus norvegicus) (UniProt P43144+Q9JLB5); assay: Antagonist activity at rat alpha9alpha10 nACh receptor expressed in Xenopus oocyte assessed as inhibition of acetylcholine-induced response at -70 mV holding potential by measuring ratio of IC50 by voltage-clamp based electrophysiological assay relative to GeXIVA; format: cell-based; settings: filed as antagonist
[2] = species: Rattus norvegicus; assay: Selectivity ratio of IC50 for rat alpha7 nACh receptor to IC50 for rat alpha9alpha10 nACh receptor
[3] = target: Neuronal acetylcholine receptor subunit alpha-7 (Rattus norvegicus) (UniProt Q05941); assay: Antagonist activity at rat alpha7 nACh receptor expressed in Xenopus oocyte assessed as inhibition of acetylcholine-induced response at -70 mV holding potential by measuring ratio of IC50 by voltage-clamp based electrophysiological assay relative to GeXIVA; settings: filed as antagonist

Row | Structure (SMILES) | Ratio IC50 [1] | Ratio IC50 [2] | Ratio IC50 [3]
1 | CC[C@H](C)[C@H]1NC(=O)[C@H](CCCNC(=N)N)NC(=O)[C@H](CCCNC(=N)N)NC(=O)[C@@H](NC(=O)[C@H](Cc2ccc(O)cc2)NC(=O)[C@H](CCCNC(=N)N)NC(=O)[C@H](CCCNC(=N)N)NC(=O)[C@H](CCCNC(=N)N)NC(=O)[C@H](CCCNC(=N)N)NC(=O)[C@H](CC(=O)O)NC(=O)[C@H](Cc2ccc(O)cc2)NC(=O)[C@@H]2CCCN2C(=O)[C@H](CO)NC(=O)[C@H](CCCNC(=N)N)NC(=O)[C@@H]2CSSC[C@H](NC(=O)[C@@H](N)[C@@H](C)O)C(=O)N[C@@H](C)C(=O)N[C@@H](CO)C(=O)N[C@@H](CO)C(=O)NCC(=O)N[C@@H](CCCNC(=N)N)C(=O)N[C@@H](Cc3ccc(O)cc3)C(=O)N2)CSSC[C@@H](C(=O)N[C@H](C(=O)O)C(C)C)NC(=O)[C@H](C)NC(=O)[C@H](CC(=O)O)NC(=O)[C@H]([C@@H](C)O)NC1=O | 6.2 | 61.1 | 7
2 | CC[C@H](C)[C@@H]1NC(=O)[C@H](CCCNC(=N)N)NC(=O)[C@H](CCCNC(=N)N)NC(=O)[C@@H](NC(=O)[C@H](C)NC(=O)[C@H](CCCNC(=N)N)NC(=O)[C@H](CCCNC(=N)N)NC(=O)[C@H](CCCNC(=N)N)NC(=O)[C@H](CCCNC(=N)N)NC(=O)[C@H](CC(=O)O)NC(=O)[C@H](Cc2ccc(O)cc2)NC(=O)[C@@H]2CCCN2C(=O)[C@H](CO)NC(=O)[C@H](CCCNC(=N)N)NC(=O)[C@@H]2CSSC[C@H](NC(=O)[C@@H](N)[C@@H](C)O)C(=O)N[C@@H](CCCNC(=N)N)C(=O)N[C@@H](CO)C(=O)N[C@@H](CO)C(=O)NCC(=O)N[C@@H](CCCNC(=N)N)C(=O)N[C@@H](Cc3ccc(O)cc3)C(=O)N2)CSSC[C@@H](C(=O)N[C@H](C(=O)O)C(C)C)NC(=O)[C@H](C)NC(=O)[C@H](CC(=O)O)NC(=O)[C@H]([C@@H](C)O)NC1=O | 1.3 | 119 | 2.9
3 | CC[C@H](C)[C@@H]1NC(=O)[C@H](CCCNC(=N)N)NC(=O)[C@H](CCCNC(=N)N)NC(=O)[C@@H](NC(=O)[C@H](Cc2ccc(O)cc2)NC(=O)[C@H](CCCNC(=N)N)NC(=O)[C@H](CCCNC(=N)N)NC(=O)[C@H](CCCNC(=N)N)NC(=O)[C@H](CCCNC(=N)N)NC(=O)[C@H](CC(=O)O)NC(=O)[C@H](Cc2ccc(O)cc2)NC(=O)[C@@H]2CCCN2C(=O)[C@H](CO)NC(=O)[C@H](CCCNC(=N)N)NC(=O)[C@@H]2CSSC[C@H](NC(=O)[C@H](C)N)C(=O)N[C@@H](CCCNC(=N)N)C(=O)N[C@@H](CO)C(=O)N[C@@H](CO)C(=O)NCC(=O)N[C@@H](CCCNC(=N)N)C(=O)N[C@@H](Cc3ccc(O)cc3)C(=O)N2)CSSC[C@@H](C(=O)N[C@H](C(=O)O)C(C)C)NC(=O)[C@H](C)NC(=O)[C@H](CC(=O)O)NC(=O)[C@H]([C@@H](C)O)NC1=O | 0.7 | 140 | 1.7
4 | CC[C@H](C)[C@@H]1NC(=O)[C@H](CCCNC(=N)N)NC(=O)[C@H](CCCNC(=N)N)NC(=O)[C@@H](NC(=O)[C@H](Cc2ccc(O)cc2)NC(=O)[C@H](C)NC(=O)[C@H](CCCNC(=N)N)NC(=O)[C@H](CCCNC(=N)N)NC(=O)[C@H](CCCNC(=N)N)NC(=O)[C@H](CC(=O)O)NC(=O)[C@H](Cc2ccc(O)cc2)NC(=O)[C@@H]2CCCN2C(=O)[C@H](CO)NC(=O)[C@H](CCCNC(=N)N)NC(=O)[C@@H]2CSSC[C@H](NC(=O)[C@@H](N)[C@@H](C)O)C(=O)N[C@@H](CCCNC(=N)N)C(=O)N[C@@H](CO)C(=O)N[C@@H](CO)C(=O)NCC(=O)N[C@@H](CCCNC(=N)N)C(=O)N[C@@H](Cc3ccc(O)cc3)C(=O)N2)CSSC[C@@H](C(=O)N[C@H](C(=O)O)C(C)C)NC(=O)[C@H](C)NC(=O)[C@H](CC(=O)O)NC(=O)[C@H]([C@@H](C)O)NC1=O | 4.5 | 124 | 10.3
5 | CC[C@H](C)[C@@H]1NC(=O)[C@H](C)NC(=O)[C@H](CCCNC(=N)N)NC(=O)[C@@H](NC(=O)[C@H](Cc2ccc(O)cc2)NC(=O)[C@H](CCCNC(=N)N)NC(=O)[C@H](CCCNC(=N)N)NC(=O)[C@H](CCCNC(=N)N)NC(=O)[C@H](CCCNC(=N)N)NC(=O)[C@H](CC(=O)O)NC(=O)[C@H](Cc2ccc(O)cc2)NC(=O)[C@@H]2CCCN2C(=O)[C@H](CO)NC(=O)[C@H](CCCNC(=N)N)NC(=O)[C@@H]2CSSC[C@H](NC(=O)[C@@H](N)[C@@H](C)O)C(=O)N[C@@H](CCCNC(=N)N)C(=O)N[C@@H](CO)C(=O)N[C@@H](CO)C(=O)NCC(=O)N[C@@H](CCCNC(=N)N)C(=O)N[C@@H](Cc3ccc(O)cc3)C(=O)N2)CSSC[C@@H](C(=O)N[C@H](C(=O)O)C(C)C)NC(=O)[C@H](C)NC(=O)[C@H](CC(=O)O)NC(=O)[C@H]([C@@H](C)O)NC1=O | 4.5 | 70 | 5.8
6 | CC[C@H](C)[C@@H]1NC(=O)[C@H](CCCNC(=N)N)NC(=O)[C@H](CCCNC(=N)N)NC(=O)[C@@H]2CSSC[C@H](NC(=O)[C@H](Cc3ccc(O)cc3)NC(=O)[C@H](CCCNC(=N)N)NC(=O)CNC(=O)[C@H](CO)NC(=O)[C@H](CO)NC(=O)[C@H](CCCNC(=N)N)NC(=O)[C@@H](NC(=O)[C@@H](N)[C@@H](C)O)CSSC[C@@H](C(=O)N[C@H](C(=O)O)C(C)C)NC(=O)[C@H](C)NC(=O)[C@H](CC(=O)O)NC(=O)[C@H]([C@@H](C)O)NC1=O)C(=O)N[C@@H](CCCNC(=N)N)C(=O)N[C@@H](CO)C(=O)N1CCC[C@H]1C(=O)N[C@@H](Cc1ccc(O)cc1)C(=O)N[C@@H](CC(=O)O)C(=O)N[C@@H](CCCNC(=N)N)C(=O)N[C@@H](C)C(=O)N[C@@H](CCCNC(=N)N)C(=O)N[C@@H](CCCNC(=N)N)C(=O)N[C@@H](Cc1ccc(O)cc1)C(=O)N2 | 5.2 |  | 
7 | CC[C@H](C)[C@@H]1NC(=O)[C@H](CCCNC(=N)N)NC(=O)[C@H](CCCNC(=N)N)NC(=O)[C@@H]2CSSC[C@H](NC(=O)[C@H](Cc3ccc(O)cc3)NC(=O)[C@H](C)NC(=O)CNC(=O)[C@H](CO)NC(=O)[C@H](CO)NC(=O)[C@H](CCCNC(=N)N)NC(=O)[C@@H](NC(=O)[C@@H](N)[C@@H](C)O)CSSC[C@@H](C(=O)N[C@H](C(=O)O)C(C)C)NC(=O)[C@H](C)NC(=O)[C@H](CC(=O)O)NC(=O)[C@H]([C@@H](C)O)NC1=O)C(=O)N[C@@H](CCCNC(=N)N)C(=O)N[C@@H](CO)C(=O)N1CCC[C@H]1C(=O)N[C@@H](Cc1ccc(O)cc1)C(=O)N[C@@H](CC(=O)O)C(=O)N[C@@H](CCCNC(=N)N)C(=O)N[C@@H](CCCNC(=N)N)C(=O)N[C@@H](CCCNC(=N)N)C(=O)N[C@@H](CCCNC(=N)N)C(=O)N[C@@H](Cc1ccc(O)cc1)C(=O)N2 | 3 |  | 
8 | CC[C@H](C)[C@@H]1NC(=O)[C@H](C)NC(=O)[C@H](CCCNC(=N)N)NC(=O)[C@@H]2CSSC[C@H](NC(=O)[C@H](Cc3ccc(O)cc3)NC(=O)[C@H](CCCNC(=N)N)NC(=O)CNC(=O)[C@H](CO)NC(=O)[C@H](CO)NC(=O)[C@H](CCCNC(=N)N)NC(=O)[C@@H](NC(=O)[C@@H](N)[C@@H](C)O)CSSC[C@@H](C(=O)N[C@H](C(=O)O)C(C)C)NC(=O)[C@H](C)NC(=O)[C@H](CC(=O)O)NC(=O)[C@H]([C@@H](C)O)NC1=O)C(=O)N[C@@H](CCCNC(=N)N)C(=O)N[C@@H](CO)C(=O)N1CCC[C@H]1C(=O)N[C@@H](Cc1ccc(O)cc1)C(=O)N[C@@H](CC(=O)O)C(=O)N[C@@H](CCCNC(=N)N)C(=O)N[C@@H](CCCNC(=N)N)C(=O)N[C@@H](CCCNC(=N)N)C(=O)N[C@@H](CCCNC(=N)N)C(=O)N[C@@H](Cc1ccc(O)cc1)C(=O)N2 | 11.6 |  | 
9 | CC[C@H](C)[C@@H]1NC(=O)[C@H](CCCNC(=N)N)NC(=O)[C@H](CCCNC(=N)N)NC(=O)[C@@H]2CSSC[C@H](NC(=O)[C@H](Cc3ccc(O)cc3)NC(=O)[C@H](CCCNC(=N)N)NC(=O)CNC(=O)[C@H](CO)NC(=O)[C@H](CO)NC(=O)[C@H](CCCNC(=N)N)NC(=O)[C@@H](NC(=O)[C@@H](N)[C@@H](C)O)CSSC[C@@H](C(=O)N[C@H](C(=O)O)C(C)C)NC(=O)[C@H](C)NC(=O)[C@H](CC(=O)O)NC(=O)[C@H]([C@@H](C)O)NC1=O)C(=O)N[C@@H](CCCNC(=N)N)C(=O)N[C@@H](CO)C(=O)N1CCC[C@H]1C(=O)N[C@@H](Cc1ccc(O)cc1)C(=O)N[C@@H](CC(=O)O)C(=O)N[C@@H](CCCNC(=N)N)C(=O)N[C@@H](CCCNC(=N)N)C(=O)N[C@@H](CCCNC(=N)N)C(=O)N[C@@H](C)C(=O)N[C@@H](Cc1ccc(O)cc1)C(=O)N2 | 1.7 |  | 
10 | CC[C@H](C)[C@@H]1NC(=O)[C@H](CCCNC(=N)N)NC(=O)[C@H](CCCNC(=N)N)NC(=O)[C@@H]2CSSC[C@H](NC(=O)[C@H](Cc3ccc(O)cc3)NC(=O)[C@H](CCCNC(=N)N)NC(=O)CNC(=O)[C@H](CO)NC(=O)[C@H](CO)NC(=O)[C@H](CCCNC(=N)N)NC(=O)[C@@H](NC(=O)[C@@H](N)[C@@H](C)O)CSSC[C@@H](C(=O)N[C@H](C(=O)O)C(C)C)NC(=O)[C@H](C)NC(=O)[C@H](CC(=O)O)NC(=O)[C@H]([C@@H](C)O)NC1=O)C(=O)N[C@@H](CCCNC(=N)N)C(=O)N[C@@H](CO)C(=O)N1CCC[C@H]1C(=O)N[C@@H](Cc1ccc(O)cc1)C(=O)N[C@@H](CC(=O)O)C(=O)N[C@@H](CCCNC(=N)N)C(=O)N[C@@H](CCCNC(=N)N)C(=O)N[C@@H](C)C(=O)N[C@@H](CCCNC(=N)N)C(=O)N[C@@H](Cc1ccc(O)cc1)C(=O)N2 | 3.6 |  | 
11 | CC[C@H](C)[C@@H]1NC(=O)[C@H](CCCNC(=N)N)NC(=O)[C@H](C)NC(=O)[C@@H]2CSSC[C@H](NC(=O)[C@H](Cc3ccc(O)cc3)NC(=O)[C@H](CCCNC(=N)N)NC(=O)CNC(=O)[C@H](CO)NC(=O)[C@H](CO)NC(=O)[C@H](CCCNC(=N)N)NC(=O)[C@@H](NC(=O)[C@@H](N)[C@@H](C)O)CSSC[C@@H](C(=O)N[C@H](C(=O)O)C(C)C)NC(=O)[C@H](C)NC(=O)[C@H](CC(=O)O)NC(=O)[C@H]([C@@H](C)O)NC1=O)C(=O)N[C@@H](CCCNC(=N)N)C(=O)N[C@@H](CO)C(=O)N1CCC[C@H]1C(=O)N[C@@H](Cc1ccc(O)cc1)C(=O)N[C@@H](CC(=O)O)C(=O)N[C@@H](CCCNC(=N)N)C(=O)N[C@@H](CCCNC(=N)N)C(=O)N[C@@H](CCCNC(=N)N)C(=O)N[C@@H](CCCNC(=N)N)C(=O)N[C@@H](Cc1ccc(O)cc1)C(=O)N2 | 2.4 |  | 
